{"source": "PubChem BioAssay AID504761 (Drosophila RNAi Screening Center, 2011)", "aim": "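Fly genes whose silencing reduces dengue virus type 2 infection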 (primary screen)", "system": "D.Mel-2 cells from Drosophila", "knock-down reagent": "long dsRNA against Drosophila genes", "conditions": "infection with dengue virus type 2; dose and infection time not stated", "detection": "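Cells stained for dengue envelope protein and imaged; percent of infected cells per well on duplicate plates, ranked by infection, with stained nuclei counted for cell number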", "scale": "infection score: higher = more virus-infected cells; cell count: higher = more cells in the well", "hit rule": "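Very low infection ranking in both replicate wells (chance probability at most 0.065), then a retest showing infection dropped 1.5-fold or more at p below 0.05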", "calls": "active = confirmed: knock-down lowers infection; inactive = not picked or not confirmed", "note": "In all, the deposit lists about 22,000 reagents; below is an unselected part of those with a known target gene and a result. In the full data, 116 (0.52%) are marked active. 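Calls depend on retest data that are not deposited; infection was ranked per plate without normalising between plates; the unit of the infection score is not given.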 The raw values are shown without normalisation. A number with no mark means an inactive call. Names joined by + are all predicted targets of the reagent. Not given: the amount of reagent, the time to read-out."}
{"target gene": "Zip88E", "dsRNA": "DRSC15562", "infection score, replicate 1": 4.5, "infection score, replicate 2": 2.47, "cell count, replicate 1": 6092, "cell count, replicate 2": 6185}
{"target gene": "Zip88E", "dsRNA": "DRSC25826", "infection score, replicate 1": 7.88, "infection score, replicate 2": 19.6, "cell count, replicate 1": 5492, "cell count, replicate 2": 5659}
{"target gene": "CG7298", "dsRNA": "DRSC10802", "infection score, replicate 1": 5.62, "infection score, replicate 2": 6.65, "cell count, replicate 1": 6943, "cell count, replicate 2": 6453}
{"target gene": "CG13384", "dsRNA": "DRSC02258", "infection score, replicate 1": 4.74, "infection score, replicate 2": 3.58, "cell count, replicate 1": 6223, "cell count, replicate 2": 5925}
{"target gene": "CG7997", "dsRNA": "DRSC07052", "infection score, replicate 1": 5.4, "infection score, replicate 2": 4.92, "cell count, replicate 1": 6792, "cell count, replicate 2": 6519}
{"target gene": "CG7997", "dsRNA": "DRSC25706", "infection score, replicate 1": 15.5, "infection score, replicate 2": 6.58, "cell count, replicate 1": 6310, "cell count, replicate 2": 6578}
{"target gene": "Rca1", "dsRNA": "DRSC03407", "infection score, replicate 1": 21.3, "infection score, replicate 2": 18.8, "cell count, replicate 1": 867, "cell count, replicate 2": 815}
{"target gene": "CG11131", "dsRNA": "DRSC11636", "infection score, replicate 1": 14.6, "infection score, replicate 2": 8.11, "cell count, replicate 1": 5928, "cell count, replicate 2": 6694}
{"target gene": "CG11131", "dsRNA": "DRSC21736", "infection score, replicate 1": 7.65, "infection score, replicate 2": 4.83, "cell count, replicate 1": 6278, "cell count, replicate 2": 6292}
{"target gene": "CG11131", "dsRNA": "DRSC28565", "infection score, replicate 1": 10, "infection score, replicate 2": 5.89, "cell count, replicate 1": 4437, "cell count, replicate 2": 2562}
{"target gene": "CG13361", "dsRNA": "DRSC17896", "infection score, replicate 1": 11, "infection score, replicate 2": 6.39, "cell count, replicate 1": 4026, "cell count, replicate 2": 5287}
{"target gene": "CG13361", "dsRNA": "DRSC29728", "infection score, replicate 1": 11.9, "infection score, replicate 2": 8.56, "cell count, replicate 1": 6166, "cell count, replicate 2": 5955}
{"target gene": "Vps25", "dsRNA": "DRSC06486", "infection score, replicate 1": 6.14, "infection score, replicate 2": 10.2, "cell count, replicate 1": 6614, "cell count, replicate 2": 5417}
{"target gene": "CG5089", "dsRNA": "DRSC06914", "infection score, replicate 1": 8.71, "infection score, replicate 2": 6.76, "cell count, replicate 1": 6855, "cell count, replicate 2": 6868}
{"target gene": "CG5089", "dsRNA": "DRSC30089", "infection score, replicate 1": 5.62, "infection score, replicate 2": 8.85, "cell count, replicate 1": 6570, "cell count, replicate 2": 5109}
{"target gene": "CG3808", "dsRNA": "DRSC10377", "infection score, replicate 1": 6.99, "infection score, replicate 2": 5.99, "cell count, replicate 1": 6635, "cell count, replicate 2": 6624}
{"target gene": "CG32425", "dsRNA": "DRSC11764", "infection score, replicate 1": 10.9, "infection score, replicate 2": 16, "cell count, replicate 1": 5620, "cell count, replicate 2": 5865}
{"target gene": "CG30056", "dsRNA": "DRSC21752", "infection score, replicate 1": 4.37, "infection score, replicate 2": 11.5, "cell count, replicate 1": 6733, "cell count, replicate 2": 5560}
{"target gene": "Coq4 + Gorab + frc", "dsRNA": "DRSC10383", "infection score, replicate 1": 0.68, "infection score, replicate 2": 3.29, "cell count, replicate 1": 6626, "cell count, replicate 2": 6681}
{"target gene": "CG8176", "dsRNA": "DRSC16394", "infection score, replicate 1": 1.12, "infection score, replicate 2": 10.3, "cell count, replicate 1": 6045, "cell count, replicate 2": 5770}
{"target gene": "wwk", "dsRNA": "DRSC01941", "infection score, replicate 2": 4.99, "cell count, replicate 1": 624, "cell count, replicate 2": 6852}

As entered above.
Result for CG5089 [DRSC30089] in “cell count, replicate 2”: 5109
CG8176 [DRSC16394], cell count, replicate 2 = 5770
